Molecular target: surface expressed H5 rHA, wild type, on PER.C6 cells (UniProt Q6DQ34)

Substance	response (arbitrary units)
CR6261 human IgG1 F54A	0.22
CR6261 human IgG1 F54L	0.36

— publication PMC2596486, “Heterosubtypic Neutralizing Monoclonal Antibodies Cross-Protective against H5N1 and H1N1 Recovered from Human IgM^+ Memory B Cells” (2008)
